Assay results as given in patent publication US20240109955A1 (published 2024).

Assays:
Assay in all cases: cell-based or functional assay
[1] = biological target: SARS-CoV-2 Omicron BA.4/5 spike protein (SARS-CoV-2)
[2] = biological target: SARS-CoV-2 Omicron BQ.1 spike protein (SARS-CoV-2)
[3] = biological target: SARS-CoV-2 Omicron BQ.1.1 spike protein (SARS-CoV-2)
[4] = biological target: SARS-CoV-2 Omicron BA.2.75.2 spike protein (SARS-CoV-2)
[5] = biological target: SARS-CoV-2 Omicron XBB spike protein (SARS-CoV-2)
[6] = biological target: SARS-CoV-2 Omicron XBB1.5 spike protein (SARS-CoV-2)
[7] = biological target: SARS-CoV-2 Omicron CH.1.1 spike protein (SARS-CoV-2)
[8] = biological target: SARS-CoV-2 Omicron BA.4.6 spike protein (SARS-CoV-2)
[9] = biological target: SARS-CoV-2 Omicron BF.7 spike protein (SARS-CoV-2)

B1: MX1042 (bispecific antibody)
chain: DTVMTQSPLSLPVTPGEPASISCRSSQSLLNSNGYNYLDWYVQKPGQSPQLLIYLGSNRASGVPDRFSGSGSGTDFTLKISRVEAEDVGVYYCMQPLQTPLFTFGPGTKVEIKGGSSGEIVLTQSPGTLSLSPGETATLSCRASQSFSSDLAWYQQKPGQAPRLLIYGASSRATGIPDRFSGSGSGTDFTLTISRLEPADFAVYYCQQYGSSPPVTFGGGTKVEIKGGGGSGGSGSGGGGSASGSGEVQLVESGGGLIQPGGSLRLSCAASGVIVSYNYMNWVRQAPGKGLEWVSVIYSGGSTFYADSVRGRFTISRDNSKNTLYLQMNSLRAEDTAVYYCARDLGPAGAFDIWGLGTMVTVSSGGSSGQVTLRESGPALVKPTQTLTLTCTFSGFSLSTRGVCVSWIRQPPGKALEWLAFIDWDDDKYYNTSLKTRLTISKDTSKNQVVLTMTNVHPVDTATYYCARISSHHGSSWCTTFDYWGQGALVTVSAASGGSGDKTHTCPPCPAPELLGGPSVFLFPPKPKDTLMISRTPEVTCVVVDVSHEDPEVKFNWYVDGVEVHNAKTKPREEQYNSYVVSVLTVLHQDWLNGKEYKCKVSNKALPAPIEKTISKAKGQPREPQVYTLPPSRDELTKNQVSLTCLVKGFYPSDIAVEWESNGQPENNYKTTPPVLDSDGSFFKKLTVDKSRWQQGNVFSCSVLHEALHSHYTQKSLSLSPG
For B1, the “IC50, pseudovirus neutralization” value [1] was 1.37 ng/mL, the “IC80, pseudovirus neutralization” value [1] was 2.75 ng/mL and the “IC50, pseudovirus neutralization” value [2] was 11.9 ng/mL. The “IC80, pseudovirus neutralization” value [2] was 27.4 ng/mL, the “IC50, pseudovirus neutralization” value [3] was 0.29 ng/mL and the “IC80, pseudovirus neutralization” value [3] was 3.5 ng/mL. The “IC50, pseudovirus neutralization” value [4] was 0.01 ng/mL, the “IC80, pseudovirus neutralization” value [4] was 0.05 ng/mL and the “IC50, pseudovirus neutralization” value [5] was 7.55 ng/mL. The “IC80, pseudovirus neutralization” value [5] was 16.5 ng/mL, the “IC50, pseudovirus neutralization” value [6] was 41.8 ng/mL and the “IC80, pseudovirus neutralization” value [6] was 81.5 ng/mL. For the same binder, the “IC50, pseudovirus neutralization” value [7] was 46.2 ng/mL, the “IC80, pseudovirus neutralization” value [7] was 158 ng/mL and the “IC50, pseudovirus neutralization” value [8] was 2.1 ng/mL. For the same binder, the “IC80, pseudovirus neutralization” value [8] was 4.51 ng/mL and the “IC80, pseudovirus neutralization” value [9] was 6.74 ng/mL.
